Results as given in PMC2194779, “Fragment-based identification of determinants of conformational and spectroscopic change at the ricin active site” (2007).

Tests used:
ricin A-chain (RTA) [1] = biological target: T1, ricin A-chain (RTA) (Ricinus communis, UniProt P02879); assay: Tryptophan fluorescence titration of ligands onto RTA (single-site binding, van't Hoff analysis); conditions: for ΔG°: binding to RTA; for wavelength of maximal emission of RTA fluorescence: in the presence of 2 mM adenine or 1.0 M urea, RTA alone 330 nm; for ΔH° / ΔS°: van't Hoff analysis, 5 to 30°C
RTA depurination site = conditions: monitored by fluorescence; ref 10 (Watanabe et al.); cited from earlier work
ricin A-chain (RTA) [2] = biological target: T1, ricin A-chain (RTA); conditions: cited from earlier work
[3] = 25°C, average and standard error of three measurements

## Nc1ncnc2nc[nH]c12
Ricin A-chain (RTA) [1]; fluorescence
  Kd: 700 µM
Ricin A-chain (RTA) [1]; fluorescence intensity at 344 nm, 25°C, pH 7.4, average and standard error of three measurements
  Kd: 700 µM

## Acetamide
Ricin A-chain (RTA) [1]; at molar concentrations
  RTA fluorescence increase: produced similar fluorescence increases
Ricin A-chain (RTA) [1]; [3]
  ΔG°: 0.19 ± 0.014 kcal/mol

## Formamide
Ricin A-chain (RTA) [1]; at molar concentrations
  RTA fluorescence increase: produced similar fluorescence increases
Ricin A-chain (RTA) [1]; [3]
  ΔG°: 0 ± 0.072 kcal/mol

## Nc1ncnc2[nH]cnc12
RTA depurination site
  Kd: 1000 µM
Ricin A-chain (RTA) [1]; [3]
  ΔG°: -4.78 ± 0.14 kcal/mol
Ricin A-chain (RTA) [1]
  wavelength of maximal emission of RTA fluorescence: 334 nm
  ΔH°: -12.7 ± 0.72 kcal/mol
  ΔS°: -0.12 ± 0.01 kJ/(K*mol)
Ricin A-chain (RTA) [1]; listed as adenine
  ΔH°: -12.7 kcal/mol

## guanidine-HCl
Ricin A-chain (RTA) [2]
  RTA fluorescence increase on titration: did not produce a fluorescence increase

## hydroxyurea
Ricin A-chain (RTA) [1]; at 1 M
  RTA fluorescence increase: no detectable fluorescence increase
Ricin A-chain (RTA) [1]; at molar concentrations
  RTA fluorescence increase: did not

## N, N-dimethylurea
Ricin A-chain (RTA) [1]; at molar concentrations
  RTA fluorescence increase: did not
Ricin A-chain (RTA) [1]; dissociation constant could not be determined
  binding to RTA in fluorescence experiments: bind weakly if at all

## N-methylurea
Ricin A-chain (RTA) [1]; at molar concentrations
  RTA fluorescence increase: produced similar fluorescence increases
Ricin A-chain (RTA) [1]; [3]
  ΔG°: -0.048 ± 0.022 kcal/mol

## Urea
Ricin A-chain (RTA) [1]; [3]
  ΔG°: -0.48 ± 0.14 kcal/mol
Ricin A-chain (RTA) [1]
  wavelength of maximal emission of RTA fluorescence: 334 nm
  ΔH°: -3.11 ± 0.48 kcal/mol
  ΔS°: -0.04 ± 0.01 kJ/(K*mol)
